Pooled drug test results. Numbers come from NIAID ChemDB, via PubChem.

Common to all: growth or infection tests; species: HIV-1; read by: luciferase; endpoint: EC50

Neighbouring rows are from separate reports. a–b is a range or a potency band. Blank or dashed fields: not listed here. ECn is the concentration giving n% inhibition of infection, replication or growth.

| structure | strain or isolate | changes | conditions | cell line | value |
|---|---|---|---|---|---|
| Cc1cc(F)cc(N(C)C(=O)[C@H](Cc2ccccc2)NC(=O)NS(=O)(=O)N[C@@H](Cc2ccccc2)C(=O)N(C)c2cc(C)cc(F)c2)c1 | NL4-3 |  |  | MT-2 | 3.91 µM |
| C=C(C)[C@@H]1CC[C@]2(C(=O)O)CC[C@]3(C)[C@H](CC[C@@H]4[C@@]5(C)CC=C(c6ccc(C7(C(=O)O)CC7)cc6)C(C)(C)[C@@H]5CC[C@]43C)[C@@H]12 | NL4-3 | Gag P373S |  | MT-2 | 1 µM |
| COc1cc2c(=O)[nH]c(-c3ccc[nH]3)nc2c(OC)c1OC | 81A |  |  | TZM-bl | 2.265 µM |
| O=C(NCCCCCN1CCCC2=C[C@@H]3C[C@@H](CN4CCCC[C@H]34)[C@@H]21)c1ccc(OC(F)(F)F)cc1 | NL4-3 |  |  | MT-4 | 0.98 µM |
| COc1ccc(N(C)C(=O)[C@H](Cc2ccccc2)NC(=O)/C=C\C(=O)N[C@@H](Cc2ccccc2)C(=O)N(C)c2ccc(OC)cc2)cc1 | NL4-3 |  |  | MT-2 | 0.16 µM |
| Cc1nccnc1-c1ccc2c(=O)n(-c3ccc(Cl)c4c(NS(C)(=O)=O)nn(C)c34)c(C(Cc3cc(F)cc(F)c3)NC(=O)Cn3nc(C(F)F)c4c3C(F)(F)[C@@H]3C[C@H]43)nc2c1 | NL4-3 |  |  | MT-2 | 0.00056 µM |
| C=C(C)[C@@H]1CC[C@]2(C(=O)O)CC[C@]3(C)[C@H](CC[C@@H]4[C@@]5(C)CC=C(c6cccc(CCC(=O)O)c6)C(C)(C)[C@@H]5CC[C@]43C)[C@@H]12 | NL4-3 | Gag P373S |  | MT-2 | 1 µM |
| CC(=O)Oc1ccc(CCC(=O)CCc2ccc(NC(=O)c3ccccc3)cc2)cc1OC(C)=O | BaL |  |  | TZM-bl | 4.85 µM |
| CN=C(c1ccccc1)N1CCN(C(=O)C(=O)c2c[nH]c3c(-n4ccnn4)ncc(F)c23)CC1 | Luciferase reporter virus |  |  | HeLa(CD4+) + HeLa | <0.5 µM |
| O=C(NCCCCCCN1CCCC2=C[C@@H]3C[C@@H](CN4CCCC[C@H]34)[C@@H]21)c1c(F)cccc1F | NL4-3 |  |  | MT-4 | >20 µM |
| C=C(C)[C@@H]1CC[C@]2(CO)CC[C@]3(C)[C@H](CC[C@@H]4[C@@]5(C)CC=C(c6ccc(C(=O)O)c(C(F)(F)F)c6)C(C)(C)[C@@H]5CC[C@]43C)[C@@H]12 | NL4-3 | Gag P373S |  | MT-2 | 1 µM |
| Cc1cc(S(N)(=O)=O)ccc1NC(=O)COc1ccc(Cl)cc1C(=O)c1cc(F)cc(C(F)(F)F)c1 | IIIB | RT-Y181C |  | HELA MAGI | 0.0031 µM |
| COc1ccnc2[nH]cc(C(=O)C(=O)N3CC/C(=C(\C#N)c4ccccc4)CC3C)c12 |  |  |  | HeLa | <1 µM |
| CN=C(c1ccccc1)N1CCN(C(=O)C(=O)c2c[nH]c3c(-n4cnc(C)n4)ncc(OC)c23)CC1 | Luciferase reporter virus |  |  | HeLa(CD4+) + HeLa | <0.5 µM |
| O=C(C(=O)N1CCN(C(=O)c2ccccc2O)CC1)c1c[nH]c2cccc(F)c12 |  |  |  | HeLa + HELA CD4+/CCR5 | <10 µM |
| COc1cnc(-c2ccc(O)cc2)c2[nH]cc(C(=O)C(=O)N3CCC(=C(C#N)c4ccccc4)CC3)c12 |  |  |  | HeLa | <1 µM |
| C[C@H]1CN(C(=O)c2ccccc2)CCN1C(=O)C(=O)c1c[nH]c2cccc(Cl)c12 |  |  |  | HeLa + HELA CD4+/CCR5 | <10 µM |
| COc1cccc(C(=O)[C@@H]2[C@@H](c3ccc(C#N)cc3)[C@](C#N)(C(N)=O)[C@H]3CCc4cc(C)ccc4N23)c1 |  |  |  | 293T | >60 µM |
| Cc1nc2c(ccn2Cc2ccc(F)c(F)c2)c(-c2ccc3c(c2C)CCCO3)c1[C@H](OC(C)(C)C)C(=O)O |  |  |  | MT-4 | 0.008 µM |
| CCN(C(=O)[C@H](Cc1cc(F)cc(F)c1)NC(=O)CN1c2ccccc2N(CC(=O)N[C@@H](Cc2cc(F)cc(F)c2)C(=O)N(CC)c2ccc3oc(=O)n(Cc4ccccc4)c3c2)S1(=O)=O)c1ccc2oc(=O)n(Cc3ccccc3)c2c1 | NL4-3 |  |  | MT-2 | 1.54 µM |
| Nc1ccn([C@@H]2CS[C@H](CO)O2)c(=O)n1 | NL4-3 | M184V-R263K |  | TZM-bl | 2.099 µM |
| CCCCCCCCCCCCCCCCCC1N[C@@H](CO)[C@H](O)[C@H](O)[C@@H]1O | NL4-3 |  |  | TZM-bl | 3 µM |
| CN(C)S(=O)(=O)/N=C(\c1ccccc1)N1CCN(C(=O)C(=O)c2c[nH]c3ccccc23)CC1 | Luciferase reporter virus |  |  | HeLa(CD4+) + HeLa | <0.5 µM |
| Cc1nnc(C(C)C)n1C1C[C@H]2CC[C@@H](C1)N2CC[C@H](NC(=O)C1CCC(F)(F)CC1)c1ccccc1 | CH058 |  |  | TZM-bl | 0.037 µM |
| Cc1nnc(C(C)C)n1C1C[C@H]2CC[C@@H](C1)N2CC[C@H](NC(=O)C1CCC(F)(F)CC1)c1ccccc1 | BaL |  |  | TZM-bl | 0.001 µM |
| CC(C)[C@@H]1CC[C@]2(CO)CC[C@]3(C)[C@H](CC[C@@H]4[C@@]5(C)CC=C(c6ccc(C(=O)O)cc6)C(C)(C)[C@@H]5CC[C@]43C)[C@@H]12 | NL4-3 | Gag P373S |  | MT-2 | 1 µM |
| CC(=O)Oc1ccc(/C=C/C(=O)CCc2ccc(NC(=O)c3ccc([N+](=O)[O-])cc3)cc2)cc1OC(C)=O | BaL |  |  | TZM-bl | 16.25 µM |
| COC(=O)c1cccc2c(C(=O)C(=O)N3CCN(C(=O)c4ccc(Br)o4)C[C@H]3C)c[nH]c12 |  |  |  | HeLa + HELA CD4+/CCR5 | <10 µM |
| C#C[C@@]1(COP(=O)(O)OP(=O)(O)OP(=O)(O)O)C=C[C@H](n2cc(C)c(=O)[nH]c2=O)O1 | NL4-3 | P119S/M184V |  | TZM-bl | 3.6 µM |
| C=C(C)[C@@H]1CC[C@]2(C(C)=O)CC[C@]3(C)[C@H](CC[C@@H]4[C@@]5(C)CC=C(c6ccc(C(=O)OC)cc6)C(C)(C)[C@@H]5CC[C@]43C)[C@@H]12 | NL4-3 | Gag P373S |  | MT-2 | >1 µM |
| CC1CC(C)CN(C(=O)Cn2cc(CS(C)(=O)=O)n3c(=O)c(O)c(C(=O)NCc4ccc(F)cc4S(=O)(=O)N(C)C)nc23)C1 |  | QHGS |  | HEK 293 | <0.5 µM |
| CCCCN=C(c1ccccc1)N1CCN(C(=O)C(=O)c2c[nH]c3c(-n4ccnn4)ncc(F)c23)CC1 | Luciferase reporter virus |  |  | HeLa(CD4+) + HeLa | <0.5 µM |
| COc1ccnc2[nH]cc(C(=O)C(=O)N3C4CCC3CN(C(=O)c3ccccc3)C4)c12 | SF162 |  |  | TZM-bl | 0.36 µM |
| O=C(CCc1ccc(NC(=O)Cc2cccs2)cc1)CCc1ccc(O)c(O)c1 | BaL |  |  | TZM-bl | 55.37 µM |
| COc1ccc(N(C)C(=O)[C@H](Cc2ccccc2)NC(=O)CN2c3ccccc3N(CC(=O)N[C@@H](Cc3ccccc3)C(=O)N(C)c3ccc(OC)cc3)S2(=O)=O)cc1 | NL4-3 |  |  | MT-2 | 0.04 µM |
| COc1ncc(OC)c2c(C(=O)C(=O)N3CCC(=Cc4ccccc4)CC3)c[nH]c12 |  |  |  | HeLa | >5 µM |
| C[C@H]1CN(C(=O)Cn2ccn3c(=O)c(O)c(-c4ncc(Cc5ccc(F)c(Cl)c5)s4)nc23)C[C@H](C)O1 |  |  |  | HEK 293 | 0.1–1 µM |
| COc1ccc(C(=O)Nc2ccc(CCC(=O)/C=C/c3ccc(OC(C)=O)c(OC(C)=O)c3)cc2)cc1 | BaL |  |  | TZM-bl | 18.85 µM |
| CS(=O)(=O)/N=C(\c1ccccc1)N1CCN(C(=O)C(=O)c2c[nH]c3cccc(F)c23)CC1 | Luciferase reporter virus |  |  | HeLa(CD4+) + HeLa | <0.5 µM |
| COc1cccc(C(=O)[C@@H]2[C@@H](c3ccccc3F)[C@](C#N)(C(N)=O)[C@H]3CCc4cc(C)ccc4N23)c1 |  |  |  | 293T | 21.5 µM |
| C=C(C)[C@@H]1CC[C@]2(C(=O)O)CC[C@]3(C)[C@H](CC[C@@H]4[C@@]5(C)CC=C(c6ccc(O)cc6)C(C)(C)[C@@H]5CC[C@]43C)[C@@H]12 | NL4-3 | Gag P373S |  | MT-2 | 1 µM |
| COc1ccc(Br)c2[nH]cc(C(=O)C(=O)N3CCN(C(=O)c4ccccn4)C[C@H]3C)c12 |  |  |  | HeLa + HELA CD4+/CCR5 | <10 µM |
| Cc1ccnc2c1NC(=O)c1cccnc1N2C1CC1 | NL4-3 |  |  | TZM-bl | 0.06805 µM |
| Cc1nc2c(ccn2Cc2ccc(F)c(F)c2)c(-c2cc(F)c3c(c2C)CCCO3)c1[C@H](OC(C)(C)C)C(=O)O |  |  |  | MT-4 | 0.006 µM |
| COc1cnc(-c2cnccn2)c2[nH]cc(C(=O)C(=O)N3CCC(=C(c4ccccc4)c4csc(C)n4)CC3)c12 |  |  |  | HeLa | <1 µM |
| O=C(NCCCCN1CCCC2=C[C@@H]3C[C@@H](CN4CCCC[C@H]34)[C@@H]21)C1(c2ccc(OC(F)(F)F)cc2)CC1 | NL4-3 |  |  | MT-4 | 3.95 µM |
| CC(C)[C@@H](CO)n1cc(C(=O)O)c(=O)c2cc(-c3ccncc3)ncc21 | NL4-3 |  | pseudotyped | HeLa | >0.1 µM |
| COC(=O)c1cccc2c(C(=O)C(=O)N3CCN(C(=O)c4ccccc4)C(C(C)(C)C)C3)c[nH]c12 |  |  |  | HeLa + HELA CD4+/CCR5 | <10 µM |
| CN(C(=O)[C@H](Cc1cc(F)cc(F)c1)NC(=O)NS(=O)(=O)N[C@@H](Cc1cc(F)cc(F)c1)C(=O)N(C)c1ccc(C2CC2)nc1)c1ccc(C2CC2)nc1 | NL4-3 |  |  | MT-2 | 0.02 µM |
| C[C@@H]1CN(C(=O)c2ccccn2)CCN1C(=O)C(=O)c1c[nH]c2ccc(F)cc12 |  |  |  | HeLa + HELA CD4+/CCR5 | <10 µM |
| COc1nc2c(cc1NC1CCCc3ccccc31)c(=O)c(C(=O)O)cn2[C@H](CO)C(C)C | NL4-3 |  | pseudotyped | HeLa | >0.1 µM |
| Cc1nc2c(ccn2Cc2cccc(F)c2F)c(-c2ccc3c(c2C)CCCO3)c1[C@H](OC(C)(C)C)C(=O)O |  |  |  | MT-4 | 0.009 µM |
| O=C(NCCCCCCN1CCC[C@H]2C[C@@H]3C[C@@H](CN4CCCC[C@H]34)[C@@H]21)c1c(F)cc(Br)cc1F | NL4-3 |  |  | MT-4 | >20 µM |
| CC(=O)Nc1nc(-c2cccc(NC(=O)C(CNC(=O)[C@@H](N)CCCCN)NC(=O)[C@@H](N)CCCCN)c2)cs1 | NL4-3 |  |  |  | 1.78 µM |
| COc1cnc(-n2cnc(C)n2)c2[nH]cc(C(=O)C(=O)N3CCC(=C(c4ccccc4)c4nnc(-c5ccccc5)o4)CC3)c12 |  |  |  | HeLa | >0.5 µM |
| CN1CCN(C(=O)Cn2ccn3c(=O)c(O)c(-c4ncc(Cc5ccc(F)cc5)s4)nc23)CC1 |  | N155H/E92Q |  | HEK 293 | 0.1–1 µM |
| COc1cccc(C(=O)C2C(c3ccc(Cl)cc3)C(C#N)(C(N)=O)C3CCc4cc(C)ccc4N23)c1 |  |  |  | Jurkat cells | 17 µM |
| Cc1cc(/C=C/C#N)cc(C)c1Nc1ccnc(Nc2ccc(C#N)cc2)n1 | BaL | Y181C |  | TZM-bl | 0.0025 µM |
| O=C(/C=C/c1ccc(O)c(O)c1)CCc1ccc(NC(=O)c2ccccc2)cc1 | BaL |  |  | TZM-bl | >50 µM |
| COc1cnc(-n2cnc(C)n2)c2[nH]cc(C(=O)C(=O)N3CCN(C(=O)c4ccccc4)CC3)c12 | NL4-3 | M426R |  | U-87 | 0.0011 µM |
| CN(C(=O)[C@H](Cc1cc(F)cc(F)c1)NC(=O)NS(=O)(=O)N[C@@H](Cc1cc(F)cc(F)c1)C(=O)N(C)c1ccc(N2CCOCC2)cc1)c1ccc(N2CCOCC2)cc1 | NL4-3 |  |  | MT-2 | 0.09 µM |
| CC(C)[C@H]1COc2nc(Cc3cccc(Cl)c3F)cc3c(=O)c(C(=O)O)cn1c23 | NL4-3 |  | pseudotyped | HeLa | >0.1 µM |
| COc1ccc(N(C)C(=O)[C@H](Cc2ccccc2)NC(=O)c2cc(C(=O)N[C@@H](Cc3ccccc3)C(=O)N(C)c3ccc(OC)cc3)[nH]n2)cc1 | NL4-3 |  |  | MT-2 | 1.58 µM |
| C[C@H]1CN(C(=O)Cn2ccn3c(=O)c(O)c(-c4ncc(Cc5ccc(F)cc5)s4)nc23)C[C@H](C)O1 |  |  |  | HEK 293 | 0.001–0.1 µM |
| CC(C)[C@@H](CO)n1cc(C(=O)O)c(=O)c2cc(NCc3cccc(Cl)c3F)ncc21 | NL4-3 |  | pseudotyped | HeLa | >0.1 µM |
| O=C(NCCCCCCN1CCCC2=C[C@@H]3C[C@@H](CN4CCCC[C@H]34)[C@@H]21)c1ccc(C(F)(F)F)cc1 | NL4-3 |  |  | MT-4 | 3.97 µM |
| CC1CCN(C(=O)Cn2ccn3c(=O)c(O)c(-c4ncc(Cc5ccc(F)cc5)s4)nc23)CC1 |  | QHGS |  | HEK 293 | 0.5–1 µM |
| COc1cccc(C(=O)[C@@H]2[C@@H](c3ccccc3)[C@](C#N)(C(N)=O)[C@H]3CCc4cc(C)ccc4N23)c1 |  |  |  | 293T | 13.7 µM |
| Cc1cc(N(C)C(=O)[C@H](Cc2ccccc2)NC(=O)NS(=O)(=O)N[C@@H](Cc2ccccc2)C(=O)N(C)c2ccc(F)c(C)c2)ccc1F | NL4-3 |  |  | MT-2 | 2.64 µM |
| O=C(Cn1ccn2c(=O)c(O)c(-c3ncc(Cc4ccc(F)cc4)s3)nc12)N1CC2CC1CO2 |  | QHGS |  | HEK 293 | 1–10 µM |